Anti-infective test results gathered from many reports (values: NIAID ChemDB through PubChem).

Shared fields: growth or infection tests; species: Hepatitis C virus

Neighbouring rows are from separate reports. ECn is the concentration giving n% inhibition of infection, replication or growth. a–b is a range or a potency band. Blank or dashed fields: not listed here.

structure | cells | setting | measure | method | strain or isolate | value
CS(=O)(=O)NC(=O)c1c(-c2ccc[nH]c2=O)c2c3occc3c(F)cc2n1Cc1cc(C(=O)NC2CC2)ccc1F |  |  | EC50 | replicon |  | 0.5–1.5 µM
C[C@@]1(F)[C@H](O)[C@@H](CO)O[C@H]1n1ccc(=O)[nH]c1=O |  |  | EC90 | replicon / PCR | WILD TYPE | >100 µM
CC1(C)CC(=O)C2=C(C1)Nc1c(O)cccc1N(C(=O)c1ccc(C(=O)O)cc1)C2c1ccc(OCc2ccccc2)cc1Cl |  |  | EC50 | luciferase / reporter gene / replicon | 1b | >32 µM
CC(C)N(C(=O)c1ccc(C(F)(F)F)cc1C(F)(F)F)c1cc(-c2ccc(-c3cc4ncccn4n3)cc2)sc1C(=O)O |  |  | EC50 | luciferase / replicon | 1b | 0.1–0.5 µM
Cc1ccccc1Cn1c(C(=O)NS(C)(=O)=O)c(-c2ccc[nH]c2=O)c2c3ncsc3ccc21 |  |  | EC50 | replicon |  | <0.5 µM
Nc1nc2c(s1)CCCn1c-2c(C2CCCCC2)c2ccc(C(=O)NC3(C(=O)Nc4ccc(/C=C/C(=O)O)cc4)CCCC3)cc21 | Huh7 |  | EC50 | replicon |  | 1–10 µM
Cn1cncc1C1Nc2cccc(O)c2NC2=C1C(=O)CC(C)(C)C2 |  |  | EC50 | luciferase / reporter gene / replicon | 1b | >10 µM
NC(=S)Nc1ccc2c(c1)Cc1cc(NCc3ccccc3)ccc1-2 | Ava5-EG(delta4AB)SEAP |  | EC50 | reporter gene / fluorescence |  | 0.001–1 µM
CB1OCCC1NC(=O)[C@@H]1C[C@@H]2CN1C(=O)[C@H](C(C)(C)C)NC(=O)OCC(C)(C)CCCCc1cccc3c1CN(C3)C(=O)O2 |  | genotype 1b | EC50 | replicon |  | >50 µM
C=C1C(=O)O[C@@H]2[C@H]1CC[C@H](COC(=O)C=C(C)C)[C@]1(O)CCC(=O)[C@@]21C | Huh7 |  | EC50 | replicon |  | <2 µM
COc1ccc(-c2cnc3nc(N)nc(N4CCN(C(=O)Nc5ccc(F)c(Cl)c5)CC4)c3n2)cc1OC | Huh7 |  | EC50 | replicon | HCV replicon | <0.3 µM
O=C(O)c1ccc2c(C3CCCCC3)c3n(c2c1)CC(C(=O)NC1CCCC1)Cc1ccccc1-3 | Huh7 |  | EC50 | replicon |  | 0.01–1 µM
COc1ccc(-c2cnc3nc(N)nc(N4CCN(C(=O)NCCc5cccs5)CC4)c3n2)cc1OC | Huh7 |  | EC50 | replicon | HCV replicon | <0.3 µM
N#Cc1ccc(OCCCCCOc2cccc(NC(N)=S)c2)cc1 | Ava5-EG(delta4AB)SEAP |  | EC50 | reporter gene / fluorescence |  | 0.001–1 µM
COc1ccc(-c2cnc3nc(N)nc(N4CCN(S(=O)(=O)Cc5ccccc5)CC4)c3n2)cc1OC | Huh7 |  | EC50 | replicon | HCV replicon | <0.3 µM
Cc1ccccc1Cn1c(C(=O)NS(=O)(=O)C2CC2)c(-c2ccc[nH]c2=O)c2c3occc3ccc21 |  |  | EC50 | replicon |  | <0.5 µM
CC1(C)CC(=O)C2=C(C1)Nc1c(O)cccc1N(C(=O)c1nccnc1N)[C@H]2c1ccc(OCc2ccccc2)cc1F |  |  | EC50 | luciferase / reporter gene / replicon | 1b | 0.84 µM
CNC(=O)c1c(-c2ccc(F)cc2)oc2cc(N(CCO)S(C)(=O)=O)c(C3CC3)cc12 | Huh7 |  | EC90 |  | 1b | 0.03 µM
CC(C)S(=O)(=O)NC(=O)c1c(-c2ccc[nH]c2=O)c2c3occc3c(F)cc2n1Cc1csc(C(N)=O)c1 |  |  | EC50 | replicon |  | <0.5 µM
Cc1cccc(C)c1NCc1cc2ccccc2oc1=O | Ava5 |  | EC50 |  |  | 24 µM
O=C1Cn2c(c(C3CCCCC3)c3ccc(C(=O)O)cc32)N1 | Huh7 |  | EC50 | replicon |  | >10 µM
CNC(=O)c1c(-c2ccccc2Cl)oc2ccc(OC)cc12 | Huh7 |  | EC50 | replicon |  | >30 µM
CCNC(=O)c1ccc(N2CCN(S(=O)(=O)c3ccc(OC(F)(F)F)cc3)C(C(=O)NCc3ccc(OC(F)(F)F)cc3)C2)nn1 |  |  | EC50 | replicon | 1a | 0.22 µM
CC(C)N(C(=O)c1ccc(Cl)cc1Cl)c1cc(-c2ccc(-c3nn[nH]n3)cc2)sc1C(=O)O |  |  | EC50 | replicon / ELISA | 1b | >5 µM
COC(=O)N[C@@H](C(=O)N1CCC[C@H]1C(=O)Cc1ccc(-c2ccc(NC(=O)[C@@H]3CCCN3C(=O)[C@H](NC(=O)OC)c3ccccc3)cc2)cc1)c1ccccc1 | Huh7.5.1 |  | EC50 | luciferase / reporter gene | GT2a | 0.00026 µM
O=C(NS(=O)(=O)Cc1ccccc1)c1ccc2c(C3CCCCC3)c3n(c2c1)CCCc1ncccc1-3 | Huh7 |  | EC50 | replicon |  | 1–10 µM
O=C(NS(=O)(=O)C1CC1)c1c(-c2ccc[nH]c2=O)c2c3ncsc3ccc2n1Cc1cc2ccccc2nc1Cl |  |  | EC50 | replicon |  | <0.5 µM
CCN(CC)[C@@H](C(=O)N1CCC[C@H]1C(=O)Cc1ccc(-c2ccc(NC(=O)[C@@H]3CCCN3C(=O)[C@@H](c3ccccc3)N(CC)CC)cc2)cc1)c1ccccc1 | Huh7.5.1 |  | EC50 | luciferase / reporter gene | GT2a | 0.0022 µM
COC(=O)NC[C@H](C(=O)N1CCCC1c1ncc(-c2ccc(-c3ccc(-c4cnc(C5CCCN5C(=O)[C@@H](NC(=O)OC)C(C)C)[nH]4)cc3)cc2)[nH]1)C(C)C | Huh7 |  | EC50 |  | 1b | 0.0000059 µM
CNC(=O)c1c(-c2ccc(F)cc2)oc2cc(C(C)(O)CN)c(OC(C)C)cc12 | Huh7 |  | EC50 | replicon |  | <30 µM
Cc1ccc(S(=O)(=O)Nc2cc(-c3ccc(S(C)(=O)=O)cc3)sc2C(=O)O)c(C)c1 | Huh7 |  | EC50 | replicon |  | 39 µM
O=c1oc2ccccc2cc1CNc1cccc([N+](=O)[O-])c1 | Ava5 |  | EC50 |  |  | >100 µM
O=C(O)/C=C/c1ccc(NC(=O)C2(NC(=O)c3ccc4c(C5CCCCC5)c5n(c4c3)CCCc3ccccc3-5)CCCC2)cc1 | Huh7 |  | EC50 | replicon |  | 0.01–1 µM
C=C1C(=O)O[C@@H]2[C@H]1CC[C@H](COC(=O)C(C)CC)[C@]1(O)CCC(=O)[C@@]21C | Huh7 |  | EC50 | replicon |  | >2 µM
O=c1ccc2nnn3c2n1[C@@H]1O[C@H](C3)[C@@H](O)[C@H]1O | Huh7 |  | EC90 | replicon |  | 70 µM
CC1(C)CCCCc2cccc3c2CN(C3)C(=O)O[C@@H]2C[C@@H](C(=O)NC3B(O)OC[C@@H]3C3CC3)N(C2)C(=O)[C@H](C(C)(C)C)NC(=O)OC1 |  | genotype 1b | EC50 | replicon |  | 4.2 µM
CC1(C)CC(=O)C2=C(C1)Nc1c(O)cccc1NC2c1ccc(C#N)cc1F |  |  | EC50 | luciferase / reporter gene / replicon | 1b | 33.35 µM
NC(=S)Nc1cccc(OCCCCCCOc2ccc(-c3ccccc3)cc2)c1 | Ava5-EG(delta4AB)SEAP |  | EC50 | reporter gene / fluorescence |  | 0.001–1 µM
Cc1ccc(C(=O)N(c2cc(-c3ccc(-c4cc5ncccn5n4)cc3)sc2C(=O)O)C(C)C)c(C)c1 |  |  | EC50 | luciferase / replicon | 1b | 0.05–0.1 µM
CNC(=O)c1c(-c2ccc(F)cc2)oc2cc(C3CCCN3C(N)=O)c(OC)cc12 | Huh7 |  | EC50 | replicon |  | <1 µM
CC1CN(C(=O)C2=Cc3ccccc3C3=C(C4CCCCC4)c4cc(C(=O)NS(=O)(=O)N(C)C)ccc4C3C2)CC(C)N1 | Huh7 |  | EC50 | replicon |  | 0.01–1 µM
CNC(=O)c1c(-c2ccc(F)cc2)oc2cc(N3CCC(O)CC3)c(OC(C)C)cc12 | Huh7 |  | EC50 | replicon |  | <10 µM
Fc1ccc(CNc2nc(NCC(F)(F)F)c3nc(-c4ccc(F)cc4)cnc3n2)cc1 | Huh7 |  | EC50 | replicon | HCV replicon | <0.3 µM
CC1(C)CC(=O)C2=C(C1)Nc1c(O)cccc1N(C(=O)CCC(=O)Nc1ccc(-n3cccc3)cc1)[C@H]2c1ccc(OCc2ccccc2)cc1Cl |  |  | EC50 | luciferase / reporter gene / replicon | 1b | 24.59 µM
CCN(CC)CCNC(=S)Nc1ccc2c(c1)Cc1cc(Br)ccc1-2 | Ava5-EG(delta4AB)SEAP |  | EC50 | reporter gene / fluorescence |  | 0.001–1 µM
COC(=O)N[C@@H](C(=O)N1CCC[C@H]1C(=O)Cc1ccc(-c2ccc(NC(=O)[C@@H]3CCCN3C(=O)[C@H](NC(=O)OC)C(C)C)cc2)cc1)C(C)C | Huh7.5.1 |  | EC50 | luciferase / reporter gene | GT2a | 0.015 µM
CC(C)N(C(=O)c1ccc(Cl)cc1F)c1cc(-c2ccc(-c3cc4ncccn4n3)cc2)sc1C(=O)O |  |  | EC50 | luciferase / replicon | 1b | 0.01–0.05 µM
C=C1C(=O)O[C@@H]2[C@H]1CC[C@H](COC(=O)CCC)[C@]1(O)CCC(=O)[C@@]21C | Huh7 |  | EC50 | replicon |  | <2 µM
O=C(O)/C=C/c1ccc(NC(=O)C2(NC(=O)c3ccc4c(C5CCCCC5)c5n(c4c3)CCCc3ocnc3-5)CCCC2)cc1 | Huh7 |  | EC50 | replicon |  | 0.01–1 µM
CNC(=O)c1c(-c2ccc(F)cc2)oc2cc(N3CCOCC3)c(OCc3ccc(C(=O)O)cc3)cc12 | Huh7 |  | EC50 | replicon |  | <10 µM
COC(=O)c1ccc2c(C3CCCCC3)c3n(c2c1)CC(NC(=O)N1CCOCC1)Cc1ccccc1-3 | Huh7 |  | EC50 | replicon |  | 1–10 µM
NS(=O)(=O)c1ccc(CNc2nc(NCC(F)(F)F)c3nc(-c4ccc(C(=O)NC5CC5)cc4)cnc3n2)cc1 | Huh7 |  | EC50 | replicon | HCV replicon | 0.3–1 µM
COc1cc(N2CCOCC2)ccc1Nc1ncnc2ccc(-c3nccs3)cc12 | Huh |  | EC50 | luciferase | 1b | <1 µM
CCCCCOc1ccc(C(=O)N2CCN(c3nc(N)nc4ncc(-c5ccc(OC)c(OC)c5)nc34)CC2)cc1 | Huh7 |  | EC50 | replicon | HCV replicon | <0.3 µM
COc1cc(NCc2cc3ccccc3oc2=O)cc(OC)c1OC | Ava5 |  | EC50 |  |  | 12 µM
CNC(=O)c1c(-c2ccc(F)cc2)oc2cc(N(C)S(C)(=O)=O)c(OCc3nn(C)cc3Cl)cc12 | Huh7 |  | EC50 | replicon |  | <1 µM
O=C(O)c1sc(-c2ccc(-c3cc4ncccn4n3)cc2)cc1N(C(=O)c1ccc(Cl)cc1Cl)C1CCOCC1 |  |  | EC50 | luciferase / replicon | 1a | 0.01–0.05 µM
COc1ccc(-c2cnc3nc(N)nc(N4CCN(C(=O)Oc5ccc(Cl)cc5)CC4)c3n2)cc1OC | Huh7 |  | EC50 | replicon | HCV replicon | <0.3 µM
Cc1cc(Cl)c(OCCCCCOc2cccc(NC(N)=S)c2)c(Cl)c1 | Ava5-EG(delta4AB)SEAP |  | EC50 | reporter gene / fluorescence |  | 0.001–1 µM
Cc1ccc(NCc2cc3ccccc3oc2=O)c(C)c1 | Ava5 |  | EC50 |  |  | >100 µM
O=C(/C=C/c1ccc(O)cc1)c1ccc(O)cc1O |  |  | EC50 | replicon | 1b | 6.2 µg/mL
Nc1cc(Cn2c(C(=O)O)c(-c3ccccc3F)c3c4ccccc4ccc32)ncn1 |  |  | EC50 | replicon |  | >10 µM
CNC(=O)c1c(-c2ccc(F)cc2)oc2ccc(OC(C)C)c(N(Cc3ccccc3)S(C)(=O)=O)c12 | Huh7 |  | EC50 | replicon |  | <1 µM
CS(=O)(=O)NC(=O)c1c(-c2ccc[nH]c2=O)c2c3occc3c(F)cc2n1Cc1cc2[nH]cnc2cc1Cl |  |  | EC50 | replicon |  | <0.5 µM
COc1ccc(-c2cnc3nc(N)nc(N4CCN(C(=O)c5ccncc5)CC4)c3n2)cc1OC | Huh7 |  | EC50 | replicon | HCV replicon | <0.3 µM

For reference, 5 entries again:

structure | cells | setting | measure | method | strain or isolate | value
COc1ccc(-c2cnc3nc(N)nc(N4CCN(C(=O)Oc5ccc(Cl)cc5)CC4)c3n2)cc1OC | Huh7 |  | EC50 | replicon | HCV replicon | <0.3 µM
CNC(=O)c1c(-c2ccc(F)cc2)oc2cc(C(C)(O)CN)c(OC(C)C)cc12 | Huh7 |  | EC50 | replicon |  | <30 µM
Cc1ccc(NCc2cc3ccccc3oc2=O)c(C)c1 | Ava5 |  | EC50 |  |  | >100 µM
CCNC(=O)c1ccc(N2CCN(S(=O)(=O)c3ccc(OC(F)(F)F)cc3)C(C(=O)NCc3ccc(OC(F)(F)F)cc3)C2)nn1 |  |  | EC50 | replicon | 1a | 0.22 µM
O=C(/C=C/c1ccc(O)cc1)c1ccc(O)cc1O |  |  | EC50 | replicon | 1b | 6.2 µg/mL